# PSTVd loop 6 mutant pool in Nicotiana benthamiana

From the data files of Wu et al. 2024, doi:10.1371/journal.ppat.1012142.

Region: loop 6 of PSTVd (intermediate strain), upper and lower strand joined, each 5' to 3', the first 5 letters being the upper strand, closing pairs included. Wild type: UGACCGCGAG. Varied positions (N): UNNNCGNNNG.

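Three N. benthamiana plants were inoculated with the whole mutant pool. Samples came from the inoculated region at 5 days, the leaf margin at 10 and upper systemic leaves at 12.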

Values are reads per thousand in the sample; higher means more abundant, 0 means not found. Each site shows the three plants. "Pool" is the share in the plasmid pool used as inoculum, on the same scale. The inoculated region was read from the minus strand, the other sites from the plus strand. IR is the inoculated region, LM the leaf margin, Sys the systemic leaves. Wild type was 20.7 per thousand in the pool and the most common sequence in every sample (inoculated region 195, 198, 203; leaf margin 629, 591, 734; systemic leaves 942, 870, 868). With 36,220-57,551 reads a sample, very low values are single reads. The authors trace changes outside the varied positions to PCR and sequencing errors or to mutation in the plant; presence does not show that a variant is infectious alone.

sequence,pool,IR,LM,Sys
UCAACGGCAG,0.131,0.712 0.557 0.387,0.166 0.0504 0.0928,0 0 0
UCAACGGCCG,0.131,0.904 0.719 0.461,0.0828 0.0504 0.0232,0 0 0
UCAACGGCGG,0.170,0.243 0.0359 0.111,0 0 0.0232,0 0 0
UCAACGGCUG,0.248,0.243 0.0539 0.0738,0 0 0.0232,0 0 0
UCAACGGGAG,0.144,0.643 0.647 0.775,0.221 0.202 0.0696,0.0180 0.121 0.0615
UCAACGGGCG,0.118,0.678 0.629 0.793,0.0828 0.126 0.162,0.0359 0.162 0.103
UCAACGGGGG,0.118,0.0869 0.0719 0.0369,0.0276 0 0,0 0 0
UCAACGGGUG,0.261,0.104 0.0539 0.0738,0 0 0,0 0 0.0410
UCAACGGUAG,0.144,0.973 0.539 0.609,0.0828 0.0757 0.0464,0 0 0
UCAACGGUCG,0.248,0.765 0.665 0.553,0.138 0.126 0.0928,0 0 0
UCAACGGUGG,0.196,0.191 0.0898 0.111,0.0276 0 0,0 0 0
UCAACGGUUG,0.170,0.174 0.0539 0.0369,0 0 0.0232,0 0 0
UCAACGUAAG,0.0654,0.851 0.665 0.516,0.138 0.151 0.0696,0 0 0
UCAACGUACG,0.235,0.695 0.754 0.443,0.0552 0.0504 0.0696,0 0 0
UCAACGUAGG,0.170,0.139 0.0719 0.129,0.0276 0 0,0 0 0
UCAACGUAUG,0.379,0.191 0.108 0.0922,0.359 0 0,0 0 0
UCAACGUCAG,0.235,0.747 0.647 0.406,0.110 0.126 0.0464,0 0 0
UCAACGUCCG,0.209,0.0695 0.0898 0.129,0.0276 0 0,0 0 0
UCAACGUCGG,0.118,0.0869 0 0.0369,0 0 0,0 0 0
UCAACGUCUG,0.235,0.104 0.0719 0.0738,0.0276 0 0.0232,0 0 0
UCAACGUGAG,0.157,0.712 0.683 0.498,0.0552 0 0.0696,0 0 0
UCAACGUGCG,0.248,0.730 0.736 0.553,0.138 0.0757 0.0232,0 0 0
UCAACGUGGG,0.222,0.104 0.108 0.0553,0 0 0,0 0 0
UCAACGUGUG,0.131,0.104 0.0719 0.0369,0.0276 0 0,0 0 0
UCAACGUUAG,0.275,0.191 0.126 0.0184,0 0 0.0232,0 0 0
UCAACGUUCG,0.131,0.139 0.108 0.0922,0 0 0,0 0 0
UCAACGUUGG,0.235,0.122 0.0359 0.111,0 0 0,0 0 0
UCAACGUUUG,0.301,0.122 0.0359 0.0738,0.0276 0 0.0232,0 0 0.0205
UCACCGAAAG,0.222,0.643 0.719 0.350,0.0828 0.177 0.0696,0 0 0
UCACCGAACG,0.157,0.174 0.0359 0.0922,0 0 0.0232,0 0 0
UCACCGAAGG,0.105,0.174 0.0359 0.111,0 0 0.0232,0 0 0
UCACCGAAUG,0.431,0.174 0.0180 0.0553,0 0 0,0 0 0
UCACCGACAG,0.170,0.139 0.0359 0.111,0 0 0.0232,0 0 0
UCACCGACCG,0.144,0.156 0.0898 0.111,0 0 0,0 0 0
UCACCGACGG,0.131,0.174 0.0719 0.0369,0 0 0.0464,0 0 0
UCACCGACUG,0.275,0.122 0.0898 0.0184,0 0 0.0464,0 0 0
UCACCGAGAG,0.183,0.660 0.719 0.627,0.138 0.101 0,0 0 0
UCACCGAGCG,0.222,0.174 0.0359 0.0369,0.0276 0 0.0928,0 0 0
UCACCGAGGG,0.0523,0.0695 0.0359 0.0738,0.0276 0 0.0696,0 0 0
UCACCGAGUG,0.235,0.0521 0.126 0.0922,0.0276 0 0.0232,0 0 0
UCACCGAUAG,0.248,0.104 0.144 0.129,0 0 0.209,0 0 0
UCACCGAUCG,0.222,0.0869 0.0719 0.0553,0 0 0,0 0 0
UCACCGAUGG,0.183,0.104 0.0719 0.129,0 0 0.116,0 0 0
UCACCGAUUG,0.235,0.0521 0.126 0.0184,0 0 0.0464,0 0 0
UCACCGCAAG,0.0392,0.643 0.826 0.443,0 0.126 0.209,0.0180 0.0404 0.0205
UCACCGCACG,0.170,0.608 0.808 0.572,0.0552 0.0504 0.186,0 0 0
UCACCGCAGG,0.157,0.104 0.0539 0.0738,0.0276 0 0.0464,0 0 0
UCACCGCAUG,0.0784,0.209 0.0898 0.0738,0.0276 0 0.0464,0 0 0
UCACCGCCAG,0.118,0.921 0.808 0.572,0.0276 0.0252 0.162,0 0 0
UCACCGCCCG,0.261,0.0695 0.0359 0.0738,0 0 0.0232,0 0.0808 0
UCACCGCCGG,0.144,0.0869 0.0180 0.0738,0.0276 0 0.0232,0 0 0
UCACCGCCUG,0.157,0.122 0.144 0.0922,0.0276 0 0.0928,0 0 0
UCACCGCGAG,0.105,14.5 18.9 17.9,6.02 78.7 19.5,6.36 14.4 12.4
UCACCGCGCG,0.118,0.834 0.431 0.627,0.0828 0.0504 0.116,0 0.0808 0.0615
UCACCGCGGG,0.157,0.104 0.144 0.0553,0 0 0.0464,0.0180 0.0404 0
UCACCGCGUG,0.157,0.191 0.108 0.0738,0.0276 0.0252 0.0464,0 0.0202 0
UCACCGCUAG,0.118,0.782 0.575 0.443,0.138 0.101 0.139,0 0 0
UCACCGCUCG,0.275,0.0869 0.0898 0.0553,0 0 0.0928,0.0359 0.0404 0
UCACCGCUGG,0.144,0.156 0.0359 0.111,0.0276 0 0.0232,0 0 0
UCACCGCUUG,0.144,0.209 0.108 0.0922,0 0 0.0928,0 0 0
UCACCGGAAG,0.0784,0.226 0.144 0.0553,0 0 0.0696,0 0 0
UCACCGGACG,0.170,0.0869 0.0898 0.0553,0 0 0.0464,0 0 0
UCACCGGAGA,0.0131,0 0 0,0 0 0,0 0 0
UCACCGGAGG,0.183,0.0695 0.162 0.0738,0 0 0.139,0 0 0
UCACCGGAUG,0.196,0.139 0.0719 0.0738,0.0552 0 0.0928,0 0 0

Excerpt, the final 6 entries:

| sequence | pool | IR | LM | Sys |
|---|---|---|---|---|
| UCACCGCUUG | 0.144 | 0.209 0.108 0.0922 | 0 0 0.0928 | 0 0 0 |
| UCACCGGAAG | 0.0784 | 0.226 0.144 0.0553 | 0 0 0.0696 | 0 0 0 |
| UCACCGGACG | 0.170 | 0.0869 0.0898 0.0553 | 0 0 0.0464 | 0 0 0 |
| UCACCGGAGA | 0.0131 | 0 0 0 | 0 0 0 | 0 0 0 |
| UCACCGGAGG | 0.183 | 0.0695 0.162 0.0738 | 0 0 0.139 | 0 0 0 |
| UCACCGGAUG | 0.196 | 0.139 0.0719 0.0738 | 0.0552 0 0.0928 | 0 0 0 |